Data from the supplement of paper PMC4858399.

Legend:
Conditions in all cases: exposure time 48 h
[1] = system: Caenorhabditis elegans N2; experiment: mean nematode size ln(EXT) after 48 h, plate-adjusted (DMSO control set to 6) (ln(EXT), control-adjusted); higher = larger nematodes / less growth inhibition
In short: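 Chemical at 0.5–200 µM was tested on synchronised C. elegans N2 L1 larvae grown for 48 h at 20°C in K-medium with killed OP50 and 1% DMSO. Per-worm Biosort extinction, cleared of debris by a growth model, was natural-logged and averaged per well to give mean size. Plates were normalised by subtracting the vehicle control mean and adding 6.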

[2] = system: Caenorhabditis elegans N2; experiment: AC50 for larval growth inhibition (Hill fit); higher = less potent
In short: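 Synchronised C. elegans N2 L1 larvae, 50 per well in 96-well plates, were grown at 20°C for 48 h in K-medium with killed OP50, 1% DMSO and 0.5–200 µM chemical. Worm size was read on a COPAS Biosort as extinction, log-transformed and averaged per well, and only wells holding at least 10 worms were kept. AC50 was obtained by a constrained Hill fit using weighted genetic-algorithm regression, with out-of-range values censored.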

[3] = system: Caenorhabditis elegans N2; experiment: lowest effective concentration for larval growth inhibition (size below effect threshold); higher = less potent
In short: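 Each well of a 96-well plate received 50 C. elegans N2 L1 larvae, which grew for 48 h at 20°C in K-medium containing killed bacteria, 1% DMSO and the chemical at 0.5, 1, 5, 10, 50, 100 or 200 µM. A Biosort recorded the extinction of every worm as its size, and these readings were log-transformed and averaged per well. The lowest effective concentration is defined as the first dose at which the plate-adjusted mean size falls below the threshold and stays below it at all higher doses; that threshold is 5.665.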

Structure (SMILES)	mean nematode size ln(EXT) (ln) ([1]; 0.5 µM)	mean nematode size ln(EXT) (ln) ([1]; 1 µM)	mean nematode size ln(EXT) (ln) ([1]; 5 µM)	mean nematode size ln(EXT) (ln) ([1]; 10 µM)	mean nematode size ln(EXT) (ln) ([1]; 50 µM)	mean nematode size ln(EXT) (ln) ([1]; 100 µM)	mean nematode size ln(EXT) (ln) ([1]; 200 µM)	AC50 for larval growth inhibition [2]	lowest effective concentration [3]
O=C1C2CC=CCC2C(=O)N1SC(Cl)(Cl)C(Cl)Cl (configuration not stated) [Captafol]	5.73	5.38	4.7	3.84	4.01	3.95	3.59	2.71 µM	1 µM
CCCCOP(=O)(OCCCC)OCCCC [Tributyl phosphate]	5.69	5.77	5.68	5.75	5.7	5.61	5.67	–	> 200 µM
